Here are results for one substance from paper PMC10889057.

The target in experiment [1] is HIV-1 Env of isolate BJOX2000 (on pseudovirus) (HIV-1).
Experiment [2] addresses HIV-1 Env of isolate CE1176 (on pseudovirus) (HIV-1).
The target of experiment [3] is HIV-1 Env of isolate 398F1 (on pseudovirus) (HIV-1).
Experiment [4] concerns the target HIV-1 Env of isolate CH119 (on pseudovirus) (HIV-1).
Experiment [5] addresses HIV-1 Env of isolate CNE8 (on pseudovirus) (HIV-1).
The target of experiment [6] is HIV-1 Env of isolate 25710 (on pseudovirus) (HIV-1).
The target in experiment [7] is HIV-1 Env of isolate X2278 (on pseudovirus) (HIV-1).
The target of experiment [8] is HIV-1 Env of isolate X1632 (on pseudovirus) (HIV-1).
For experiment [9], the target named is HIV-1 Env of isolate CNE55 (on pseudovirus) (HIV-1).
Experiment [10] deals with HIV-1 Env of isolate CE0217 (on pseudovirus) (HIV-1).
For experiment [11], the target named is HIV-1 Env of isolate 246F3 (on pseudovirus) (HIV-1).
Experiment [12] deals with HIV-1 Env of isolate TRO11 (on pseudovirus) (HIV-1).

The substance “WT CD4-Ig (from UniProt P01730 26-388) (Fc fusion)” yielded an IC50, neutralization of BJOX2000 HIV-1 pseudovirus in TZM-bl cells in [1] of 10.1 µg/mL. The substance further had an IC50, neutralization of CE1176 HIV-1 pseudovirus in TZM-bl cells in experiment [2] of 9.66 µg/mL. In experiment [3], this substance showed an IC50, neutralization of 398F1 HIV-1 pseudovirus in TZM-bl cells of 9.43 µg/mL. Further, the IC50, neutralization of CH119 HIV-1 pseudovirus in TZM-bl cells in experiment [4] turned out to be 30.2 µg/mL. The same substance displayed an IC50, neutralization of CNE8 HIV-1 pseudovirus in TZM-bl cells in [5] of over 50 µg/mL. The IC50, neutralization of 25710 HIV-1 pseudovirus in TZM-bl cells in experiment [6] stood at 0.643 µg/mL. This substance also yielded an IC50, neutralization of X2278 HIV-1 pseudovirus in TZM-bl cells in experiment [7] of 19.6 µg/mL. The IC50, neutralization of X1632 HIV-1 pseudovirus in TZM-bl cells in experiment [8] amounted to 2.59 µg/mL. Besides, in experiment [9], the IC50, neutralization of CNE55 HIV-1 pseudovirus in TZM-bl cells worked out at 30 µg/mL. In experiment [10], the IC50, neutralization of CE0217 HIV-1 pseudovirus in TZM-bl cells came out at 13.6 µg/mL. For the same substance, the IC50, neutralization of 246F3 HIV-1 pseudovirus in TZM-bl cells in experiment [11] was 25.2 µg/mL. The substance also had an IC50, neutralization of TRO11 HIV-1 pseudovirus in TZM-bl cells in experiment [12] of over 50 µg/mL.
